Pooled drug test results. Numbers come from NIAID ChemDB, via PubChem.

Shared fields: tests in culture; organism: Cryptococcus neoformans; measure: MIC80

MIC50, MIC90 and the like: level of inhibition, or share of isolates inhibited. Conditions beyond the fields shown may differ between rows. Blank or dashed fields: not listed here.

compound,strain or isolate,value
O=C1S/C(=C\c2ccccc2Br)C(=O)N1CC(O)(Cn1nccn1)c1ccc(F)cc1F,CNCYP51,30.69 µg/mL
C[C@@H](n1ncc2cc([N+](=O)[O-])ccc21)[C@](O)(Cn1cncn1)c1ccc(F)cc1F,ATCC 24065,0.063 µg/mL
CCCCN(Cc1cn(Cc2cccc(Br)c2)nn1)CC(O)(Cn1cncn1)c1ccc(F)cc1F,,>64 µg/mL
N/C(=N\O)c1ccc(OCCCCCOc2ccc(/C(N)=N/O)cc2)cc1,H99,>100 µg/mL
CCCCN(Cc1cn(Cc2ccccc2C#N)nn1)CC(O)(Cn1cncn1)c1ccc(F)cc1F,,64 µg/mL
C[C@@H](n1cc2c([N+](=O)[O-])cccc2n1)[C@](O)(Cn1cncn1)c1ccc(F)cc1F,ATCC 24065,0.063 µg/mL
CCCCN(Cc1cn(Cc2ccc(F)cc2)nn1)CC(O)(Cn1cncn1)c1ccc(F)cc1F,,2 µg/mL
CC(C)N=C(N)c1ccc2nc(-c3ccc(CCc4ccc(-c5nc6ccc(C(N)=NC(C)C)cc6[nH]5)cc4)cc3)[nH]c2c1,H99,0.39 µg/mL
O=C1S/C(=C\c2ccc(F)cc2F)C(=O)N1CC(O)(Cn1nccn1)c1ccc(F)cc1F,,8.36 µg/mL
CCCCN(Cc1cn(Cc2cccc([N+](=O)[O-])c2)nn1)CC(O)(Cn1cncn1)c1ccc(F)cc1F,,64 µg/mL
O=C1S/C(=C\c2ccc3ccccc3n2)C(=O)N1CC(O)(Cn1nccn1)c1ccc(F)cc1F,,8.1 µg/mL
Cc1nn([C@H](C)[C@](O)(Cn2cncn2)c2ccc(F)cc2F)c2ccc([N+](=O)[O-])cc12,ATCC 24065,0.25 µg/mL
COc1ccc(/C=C2\SC(=O)N(CC(O)(Cn3nccn3)c3ccc(F)cc3F)C2=O)cc1,,4.23 µg/mL
C[C@@H](n1ncc2cc(Cl)ccc21)[C@](O)(Cn1cncn1)c1ccc(F)cc1F,ATCC 24065,0.032 µg/mL
OC(Cn1cncn1)(Cn1cncn1)c1ccc(F)cc1F,,4.62 µg/mL
N=C(N)c1ccc(OCCCC(O)COc2ccc(C(=N)N)cc2)cc1,114.96,0.78 µg/mL
OC(CN1CCN(c2ccc(OCc3ccncc3)cc2)CC1)(Cn1cncn1)c1ccc(F)cc1F,95211,0.5 µg/mL
Cc1ccc(/C=C2\SC(=O)N(CC(O)(Cn3nccn3)c3ccc(F)cc3F)C2=O)c(C)c1,CNCYP51,8.5 µg/mL
N=C(N)c1ccc(NCCCNc2ccc(C(=N)N)cc2[N+](=O)[O-])c([N+](=O)[O-])c1,114.95,6.25 µg/mL

A second listing of 2 rows from above:

CCCCN(Cc1cn(Cc2cccc([N+](=O)[O-])c2)nn1)CC(O)(Cn1cncn1)c1ccc(F)cc1F ; value: 64 µg/mL
C[C@@H](n1ncc2cc(Cl)ccc21)[C@](O)(Cn1cncn1)c1ccc(F)cc1F ; strain or isolate: ATCC 24065 ; value: 0.032 µg/mL